Pooled drug test results. Numbers come from NIAID ChemDB, via PubChem.

Shared fields: host cell toxicity; cells: THP-1; measure: CC50

Rows are shuffled and stem from different studies. CCn: concentration that lowers growth or viability of the cells by n%.

{"SMILES": "CC1(C)CC2=C(O1)C(=O)C(Br)=CC2=O", "result": "0.085 µM"}
{"SMILES": "Nc1nc2c(sc(=O)n2C/C=C\\CO)c(=O)[nH]1", "result": ">300 µM"}
{"SMILES": "O=C1c2cc3ncsc3cc2C2=NCCn3ccc1c32", "result": "0.083 µM"}
{"SMILES": "CCCCOC(=O)c1cc([N+](=O)[O-])cc(C(F)(F)F)c1", "result": "552 µg/mL"}
{"SMILES": "CCCCSc1n[nH]c(-c2ccc([N+](=O)[O-])c(C)c2)n1", "result": "65.68 µg/mL"}
{"SMILES": "[N-]=[N+]=NCCn1ccc2c(O)ccc(O)c21", "result": "0.817 µM"}
{"SMILES": "CC1(C)CC2=C(O1)C(=O)c1cc3ncsc3cc1C2=O", "result": "0.007 µM"}
{"SMILES": "C=CCSc1n[nH]c(-c2ccc([N+](=O)[O-])c(C)c2)n1", "result": ">100 µg/mL"}
{"SMILES": "CCOC(=O)c1cc2c(OC)ccc(OC)c2[nH]1", "result": "0.096 µM"}
{"SMILES": "CCCCSc1n[nH]c(-c2ccco2)n1", "result": ">100 µg/mL"}
{"SMILES": "CC1(C)CC2=C(O1)C(=O)C=CC2=O", "result": "0.123 µM"}
{"SMILES": "O=C(Nc1ccccc1Cl)c1c(O)ccc2ccccc12", "result": ">20 µM"}
{"SMILES": "C=CCSc1n[nH]c(-c2ccc(C(F)(F)F)cc2)n1", "result": "75.29 µg/mL"}
{"SMILES": "COc1ccc(OC)c2[nH]ccc12", "result": "0.392 µM"}
{"SMILES": "Cc1cc2c(o1)C(=O)c1cc3ncsc3cc1C2=O", "result": "1.466 µM"}
{"SMILES": "C=CCSc1n[nH]c(-c2ccco2)n1", "result": ">100 µg/mL"}
{"SMILES": "COc1ccc(OC)c2c1ccn2CCN=[N+]=[N-]", "result": "0.099 µM"}

2 of the rows above, restated:

COc1ccc(OC)c2c1ccn2CCN=[N+]=[N-] ; result: 0.099 µM
C=CCSc1n[nH]c(-c2ccco2)n1 ; result: >100 µg/mL